Data as given in PubChem BioAssay AID624099 (ICCB-Longwood, 2012).

Screen: 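Knock-downs relieving repression by E2 of an HPV18 LCR luciferase reporter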 (primary screen)
Cells: human C33A cervical carcinoma cells (HPV-negative) stably expressing BPV1 E2 and an HPV18 LCR luciferase reporter
Reagents: siRNA pool against human genes, 40 nM
Duration: 72 h
Measured: 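Per-well luciferase luminescence, z-scored on each plate against the plate mean and SD with control wells left out, then averaged across three replicate plates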
Scale: mean z-score and z-score: higher = stronger reporter signal, weaker E2 silencing
Hit rule: 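Mean z ≥ 2 together with z ≥ 2 in two or more of the three replicates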
The deposit covers about 21,000 reagents; shown is a part drawn at random. In the full data, 497 (2.4%) were called active. 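Higher z means weaker E2 silencing; only reporter increases were scored, and knock-downs that hurt cell survival may mask genuine repressor factors.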

| target | mean z-score | z-score, replicate A | z-score, replicate B | z-score, replicate C | activity call |
| --- | --- | --- | --- | --- | --- |
| PC | 0.54 | 0.6 | 0.59 | 0.43 | inactive |
| TCEANC2 | 0.02 | 0.16 | 0.08 | -0.19 | inactive |
| TLK2 | 1.02 | 1.14 | 0.92 | 0.99 | inactive |
| PUM2 | 0.95 | 0.56 | 0.94 | 1.35 | inactive |
| RFX4 | -0.09 | -0.07 | -0.36 | 0.16 | inactive |
| LOC441540 (retired record) | -1 | -1.24 | -0.92 | -0.84 | inactive |
| AP4B1 | 2.44 | 2.81 | 1.97 | 2.54 | active |

Called active (from the list above):
| target | mean z-score | z-score, replicate A | z-score, replicate B | z-score, replicate C | activity call |
| --- | --- | --- | --- | --- | --- |
| AP4B1 | 2.44 | 2.81 | 1.97 | 2.54 | active |

The list goes on:
| target | mean z-score | z-score, replicate A | z-score, replicate B | z-score, replicate C | activity call |
| --- | --- | --- | --- | --- | --- |
| HADH | -0.33 | -0.7 | -0.31 | 0.02 | inactive |
| PRNP | 0.63 | 0.82 | 0.77 | 0.28 | inactive |
| LOC400877 (retired record) | 0.44 | 0.42 | 0.31 | 0.58 | inactive |
| ALDH1L2 | -0.26 | -0.31 | 0.15 | -0.63 | inactive |
| FITM1 | 0.31 | 0.15 | 0.37 | 0.42 | inactive |
| IREB2 | 0.45 | 0.51 | 0.27 | 0.59 | inactive |
| OGDH | 0.23 | 0.34 | 0.01 | 0.35 | inactive |
| RFTN2 | 0.61 | 0.41 | 0.87 | 0.57 | inactive |
| DIAPH3 | 0.44 | 0.44 | 0.49 | 0.38 | inactive |
| ZNF432 | -0.6 | -0.53 | -0.66 | -0.62 | inactive |
| SNTB2 | -0.48 | -0.65 | -0.32 | -0.47 | inactive |
| GPATCH11 | 1.02 | 1.22 | 0.85 | 1 | inactive |
| POR | 0.83 | 1.35 | 0.87 | 0.28 | inactive |
| AFDN | 0.15 | 0.15 | -0.06 | 0.37 | inactive |
| ARF1 | -0.99 | -0.72 | -1.22 | -1.01 | inactive |
| WDR83OS | -0.17 | 0.01 | -0.24 | -0.27 | inactive |
